The text below walks through data of US6436691B1, “Chemical compounds” (Zeneca Limited, priority 1995, dated 2002).

In the assay the test system is LoVo colorectal tumour cells. The experiment in a line: Cytotoxicity in LoVo tumour cells, SRB assay. The following applies: mean data from 3 separate studies. (In general: Sulforhodamine B stains cellular protein and so reports cell mass.)

“N-[N-(4-{4-[bis-(2-chloroethyl)-amino]-3-methyl-phenoxy}-benzoyl)-L-alanine]-L-glutamic acid” had a 50% inhibitory concentration (IC50) of 905 µM.

The IC50 is the midpoint of a concentration-inhibition curve.
